In article PMC9785441, “A Broad Spectrum Antiparasitic Activity of Organotin (IV) Derivatives and Its Untargeted Proteomic Profiling Using Leishmania donovani” (Pathogens, 2022):

Columns and labels:
[1] = tested on: L. donovani intracellular amastigotes; assay: L. donovani intracellular amastigote assay in B10R cells (high content imaging); format: cell-based, Leishmania donovani; settings: ratio between CC50 in B10R cells and EC50 against L. donovani intracellular amastigotes
Procedure: For the intracellular amastigote stage assay, L. donovani was incubated at a density of 1 × 10^6 parasites/mL for six days at 29 °C before infection to enrich the proportion of metacyclic promastigotes. B10R monocyte cell lines were cultured in RPMI supplemented with 10% FBS and 1%penicillin/streptomycin at 37 °C in 5% CO2. After 72 h, cells were counted with a hemocytometer and mixed with the six-day-old parasites. Into 384-well assay plates, that had been pre-spotted with compounds diluted 1000-fold in DMSO, with final assay concentrations ranging from 20 µM to 0.02 µM and tested in biological triplicates., 500 B10R cells and 7000 parasites were dispensed per well in a final volume of 50 µL using a Multidrop Combi liquid dispenser (ThermoScientific, Waltham, MA, USA). Plates were incubated at 37 °C and 5% CO2 for 72 h. Cultures were then fixed with 4% formaldehyde solution for 30 min and stained with 0.5 µg/mL DAPI (diamidino-2-phenylindole). Plates were then imaged using an ImageXpress Micro XLS automated high content imager (Molecular Devices, San Jose, CA, USA) using a 10× air objective. A custom image analysis module generated in ImageXpress was used to count the nuclei of host and parasite cells. EC50 values were obtained using the GraphPad Prism 9 Software with biological triplicates.

[2] = tested on: T. cruzi (infecting C2C12); assay: T. cruzi intracellular amastigote assay in C2C12 cells (high content imaging); format: cell-based, Trypanosoma cruzi; settings: ratio between CC50 in C2C12 cell lines and EC50 against T. cruzi intracellular amastigotes
Procedure: Mouse C2C12 myoblasts (ATCC CRL-1772) were cultivated in RPMI 1640 medium supplemented with 5% FBS and kept at 37 °C and 5% CO2. T. cruzi CAI-72 trypomastigotes were obtained from the supernatant of C2C12 cells infected four to seven days previously. For the assay, 500 C2C12 cells were mixed with 7500 T. cruzi parasites and seeded into 384-well plates at a 50 µL final volume. Test compounds and reference drugs (Benznidazole and K11777) were pre-spotted into the 384 well black bottom plates prior to the addition of cells and parasites with final assay concentration of 20 µM to 0.02 µM. The plates were incubated at 37 °C^, 5% CO2 for 72 h. Cultures were then fixed with 4% formaldehyde and 0.5 µg/mL DAPI (diamidino-2-phenylindole) was added for staining nucleic acids. Plates were kept protected from light for 1 h and then imaged in an ImageXpress Micro XLS automated high content imager (Molecular Devices, San Jose, CA, USA). Imaging and data analysis were performed as described for L. donovani amastigotes on biological triplicates.

Compound	SI^a [1]	SI^b [2]
COc1ccc(NC(=O)CCC(=O)O)cc1 [MS26, 4-(4-methoxyphenylamino)-4 oxobutanoic acid]	2.02	6.23
COc1ccc(NC(=O)CCC(=O)[O-])cc1.[Na+] [MS26Na, sodium 4-(4-methoxyphenylamino)-4 oxobutanoate]	1.06	0.38
